For at least one entry, the source does not settle the construct or the ends of the probe. For part of these data: At least one verdict was read from the data and is not stated in words by the source. For part of these data: Tags and fusion partners may be left off the protein sequences shown.
Legend:
CRP [1] = assay: EMSA; settings: 1 mM cAMP, Lrp/H-NS/HlyU: 50 mM Tris-Cl pH 8.0, 20 mM KCl, 100 ug BSA, 1 mM DTT, 10% glycerol, 0.1 ug poly(dI-dC), 25 C, 0.5 h, CRP: 10 mM Tris-Cl pH 7.9, 50 mM NaCl, recombinant protein, protein details: His6 (pRSET A), probe letters rebuilt from the primers and the genome
[2] = tested on: T1, Lrp (Vibrio vulnificus MO6-24/O); assay: EMSA; settings: Lrp/H-NS/HlyU: 50 mM Tris-Cl pH 8.0, 20 mM KCl, 100 ug BSA, 1 mM DTT, 10% glycerol, 0.1 ug poly(dI-dC), 25 C, 0.5 h, CRP: 10 mM Tris-Cl pH 7.9, 50 mM NaCl, recombinant protein, residues 1-164, protein details: His6 (pET-28a(+)), probe letters rebuilt from the primers and the genome
T1 sequence (looked up): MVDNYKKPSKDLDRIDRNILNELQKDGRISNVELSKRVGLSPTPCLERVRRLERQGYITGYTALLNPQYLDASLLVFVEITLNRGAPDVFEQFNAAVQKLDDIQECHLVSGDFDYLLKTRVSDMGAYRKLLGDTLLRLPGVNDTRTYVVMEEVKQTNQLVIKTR

CRP [3] = assay: DNase I footprinting; settings: 1 mM cAMP, Lrp/H-NS/HlyU: 50 mM Tris-Cl pH 8.0, 20 mM KCl, 100 ug BSA, 1 mM DTT, 10% glycerol, 0.1 ug poly(dI-dC), 25 C, 0.5 h, CRP: 10 mM Tris-Cl pH 7.9, 50 mM NaCl, recombinant protein, protein details: His6 (pRSET A), probe letters rebuilt from the primers and the genome
[4] = tested on: T1, Lrp (Vibrio vulnificus MO6-24/O); assay: DNase I footprinting; settings: phased hypersensitivity, Lrp/H-NS/HlyU: 50 mM Tris-Cl pH 8.0, 20 mM KCl, 100 ug BSA, 1 mM DTT, 10% glycerol, 0.1 ug poly(dI-dC), 25 C, 0.5 h, CRP: 10 mM Tris-Cl pH 7.9, 50 mM NaCl, recombinant protein, residues 1-164, protein details: His6 (pET-28a(+)), probe letters rebuilt from the primers and the genome

Measured: binding result

TTTCAGCCATTACGCCATTCGCCATATTTTTTTGATCCTGACCTACGAAATAAAGAGAAAAAACACCTTTATTGTAGTTAACACTAGATACTGTTTGAACAAACTTCTCAGTCATAAATTTCCCCTACTTATTTTATATAGATAAGACGAAAATCGTTCCTTTTAAAAGGAATCACTCTCCGCCTGCAAGCTCAATTAAAAGGCAAAATATAAGAATTCAGCCATAAATAATTATTGTAATGTTTATTTTGTGTCGAAATATTACATCGTAAAACAGTGGTCATCAATAGACTTAAATCGATTATATTAGAGCAATTATTCTATTTTTATCGGCCATTATTCACTCAATTCCATATTCATGTAACAATCACCTTGATTACCTATTAACGTGATATGCATCATTCATTTGAATCAAATCTGTGCAATAAACACACAATGAAGACCAATAAACG (double strand) [PrtxA probe 2]
binds: CRP [1]; two retarded bands, self-competition | [2]; 100 nM Lrp, 5 mM L-histidine (no effect) | [2]; 100 nM Lrp, 5 mM L-tryptophan (no effect) | [2]; full retardation at 180 nM Lrp, self-competition | CRP [3]; CRPB2 -145/-127 protected, CRPB3 -118/-92 at higher CRP | [4]; LRPB3 -63/-10 protected

AGACTAGTTCATGTGTTGGTCCTCTAGCTACAACTCACATGTCCCAACGGTTGTTGCAGATAGTTGTGTTAAACAATTTTATAATTTAGGTTTATATTTTTGTAGATAGTAATCTATTTGGGGTATTCAAGGGAACGGTTTCATTCAAACAATTGGCTAAAATCTGCGTCACATACATTCTTTACTGCGGGATGTTGAATCATACGCTCAGCAAAGATCACGTAATACTCTTCTTTGAGATCGTCAACATGGCCAATGAGTTGTAAAGTCAGATCTTCTTCGATTTCTGAGATATAGACGGTCGGGGCAAGGAAAATGACATCATCATGGTAGCGAGCAAAGGCTTTCATTAGGGCCACATCATCAAATTCCCCTAAGACATCAGGTTGAATCCCTTGGCGATCAAACCACTGTAAAACCTTACGCCCCATCGCTGTTCGGCTCCCAGGAATCAACAGTTTTTTCTGCTCCAAAATTGCGGGAAATTCAGCATTATCTATTTTGGTGGAAGAGAAGAAACTCATGCTCGACTCACCCAGTTTCTTACTATATAGGCCGGGACTTTGTGTCGAGTCGAGCTCTTG (double strand) [hlyU upstream region]
binds: CRP [1]; self-competition, label: 32P on reverse primer

AATGAGCTCTGAAAAACCGATGCCTGCACCGGCATTAGTTTCAACAAAAACTTGGTGACCATGTGAGATAAGCTCTCTCACACTGGCTGGGATCATACCAACACGGTATTCGTGGTTCTTGATTTCCTTTGGAACGCCAATAATCATCCTGACTCCTCGTTTTATTCTGGTTGTATTGACTATGTGTAGGGTGTAATGTCGAATTTGTGCCTAGTATAGATGTGATGTGGCAAAATTTGATACTGAATATTAAAAAGTTGTAGTATATTTTTTTGCAAGGAAGTAATAAGGTGGAATAAAAAATGGTAGATAACTACAAAAAGCCGTCCAAGGATCTAGACCGTATCGATCGCAATATTTTGAATGAATTGCAGAAAGATGGTCGAATTTCAAACGTTGAACTCTCTAAGCGCGTGGGGCTTTCTCCAACTAGTAAA (double strand) [lrp upstream region]
binds: CRP [1]; one retarded band, self-competition, label: 32P on reverse primer

TTTCAGCCATTACGCCATTCGCCATATTTTTTTGATCCTGACCTACGAAATAAAGAGAAAAAACACCTTTATTGTAGTTAACACTAGATACTGTTTGAACAAACTTCTCAGTCATAAATTTCCCCTACTTATTTTATATAGATAAGACGAAAATCGTTCCTTTTAAAAGGAATCACTCTCCGCCTGCAAGCTCAATTAAAAGGCAAAATATAAGAATTCAGCCATAAATAATTATTGTAATGTTTATTTTGTGTCGAAATATTACATCGTAAAACAGTGGTCATCAATAGACTTAAATCGATTATATTAGAGCAATTATTCTATTTTTATCGGCCATTATTCACTCAATTCCATCTTCATGGACGTAGGCCCTTGATTACCTATTAACGTGATATGCATCATTCATTTGAATCAAATCTGTGCAATAAACACACAATGAAGACCAATAAACG (double strand) [probe 2 mtCRPB3]
binds: CRP [1]; not significantly altered vs wild type, label: 32P

CACACAATGAAGACCAATAAACGAGCAAAACAGTCCGCAATTGATGATTGATCGTGTTAACAAGCGGTGATAGGATTCCGCCCCTTCAAAAACGCTGCAATAAACATCGGCTAAGTAATTTAATTATGTCCAACAATGAAGGGTTGACGCTGATATGTATTCACTTTTATTTAAGTATCATCAGCGGTAATAGAGAACAATTTAAAGAAAATGCTAATTTAACAAAAACTAATAATTACAAAGAAGAACTCGAAAAAATACAAAAAGCAAACAAAGTAAGAATAACCACAAAACATTCACAATTTAAAAACATAGAGAAAATAAAAACACCCGCCATTTTATTTGATTCACAAGGTGCACCATTTATTCTAGCAAAGGCTAATAAAGATAAATGTTTAATACAAAGACCTAATAAAGAAAGTCCAGAAGTGGTCTCTTATCACGAACTTAAC (double strand) [PrtxA probe 1]
binds: CRP [1]; one retarded band, self-competition | [2]; 400 nM Lrp, 5 mM L-histidine (no effect) | [2]; 400 nM Lrp, 5 mM L-tryptophan (no effect) | [2]; full retardation at 720 nM Lrp, self-competition | CRP [3]; CRPB1 -336/-297 protected | [4]; LRPB1 -453/-387 and LRPB2 -298/-219 protected
